Anti-infective test results gathered from many reports (values: NIAID ChemDB through PubChem).

Common to all: whole-cell or culture tests; agent: HIV-1; measure: inhibition

Inhibition is in % at the dose shown (toxicity tests: loss of growth or viability). Blank or dashed fields: not listed here. Two numbers with a dash give a range or band. Rows are shuffled and stem from different studies.

| smiles | strain | cells | method | conditions | tested at | result |
|---|---|---|---|---|---|---|
| O=C(O)P(=O)(O)O | IIIB | H9 | p24 / antigen | 6 d | 300 µM | 92% |
| NC(N)=NCCC[C@@H](C=O)NC(=O)CNC(=O)[C@@H]1CCCN1C(=O)CNC(=O)[C@@H](N)CCCN=C(N)N | IIIB | H9 | syncytia | - | 25 µg/mL | 0% |
| CC(C)(C)NC(=O)[C@@H]1C[C@@H]2CCCC[C@@H]2CN1C[C@@H](O)[C@H](Cc1ccccc1)NC(=O)[C@H](CC(N)=O)NC(=O)c1ccc2ccccc2n1 | BaL | Macrophage + Monocytes/macrophages | p24 | - | 0.4 µM | 95% |
| O=S(=O)(O)c1cc(N=C=S)ccc1CCc1ccc(N=C=S)cc1S(=O)(=O)O | GB8 | JM | p24 | - | 25 µg/mL | 57% |
| NC(=O)NO | IIIB | PBMC | p24 | - | 100 µM | 20% |
| O=C(O)P(=O)(O)O | IIIB | PBL | RT activity | 14 d | 64 µM | 79% |
| c1cc(CN2CCCNCCNCCCNCC2)ccc1CN1CCCNCCNCCCNCC1 | SW26 CLADE C R5 | PBMC | p24 | - | 0.5 µM | 8% |
| Cc1cn([C@H]2C[C@H](N=[N+]=[N-])[C@@H](CO)O2)c(=O)[nH]c1=O | LAV-Bru | CEM | RT activity | 26 d | 0.2 µM | 0% |
| O=C1N(Cc2ccc(CO)cc2)[C@H](Cc2ccccc2)[C@H](O)[C@@H](O)[C@@H](Cc2ccccc2)N1Cc1ccc(CO)cc1 | Clinical isolate K | PBMC | p24 | - | 0.16 µM | 90% |
| O=C(O)CCCCCCCCCCCOc1ccccc1 | IIIB | CEM + CEM-SS | cytopathic effect / XTT | - | 20 µM | 18% |
| Cc1cn([C@H]2C[C@H](N=[N+]=[N-])[C@@H](CO)O2)c(=O)[nH]c1=O | IIIB | C8166 | p24 | - | 0.08 µg/mL | 85.7% |
| Nc1ccn([C@@H]2CS[C@H](CO)O2)c(=O)n1 | SF162 R5 | PBL (resting) + PBL | RT activity | - | 5 µM | 98% |
| C/C1=C\C=C(\C(C)C)[C@@H](O)C/C(C)=C/CC/C(C)=C/CC1 | IIIB | Jurkat cells | p24 | - | 0.1 µM | 20% |
| COc1ccc(CN[C@@H](C(=O)N[C@H]2c3ccccc3C[C@H]2O)[C@H](O)[C@H](Cc2ccccc2)NC(=O)[C@@H](NC(=O)OCc2ccccc2)C(C)(C)C)cc1 | IIIB | MOLT4 + MOLT-4 | p24 | - | 0.13 µM | 90% |
| O=C(O)CCCCCCCCCCCI | IIIB | CEM + CEM-SS | cytopathic effect / XTT | - | 63.2 µM | 70.5% |
| Cc1ccnc2c1NC(=O)c1cccnc1N2C1CC1 | LAV-1 | HT4 + HT4-6C | syncytia | - | 1 µM | 96% |
| COC(=O)[C@@H]1C2CCC(C[C@@H]1OC(=O)c1ccccc1)N2C | IIIB | U-937 | p24 | - | 25 µg/mL | <0% |
| CCCCCCCCCCCCCCCCOP(=O)(OC[C@H]1OC(O)[C@H](O)[C@@H](O)[C@@H]1O)OC[C@H]1O[C@@H](n2cc(C)c(=O)[nH]c2=O)C[C@@H]1N=[N+]=[N-] | LAV-Bru | CEM | RT activity | 22 d | 0.2 µM | 0% |
| COc1ccccc1CN[C@H]1C2CCN(CC2)[C@H]1C(c1ccccc1)c1ccccc1 | CSF-8 Primary R5 isolate | Macrophage + Monocytes/macrophages | RT activity | - | 0.1 µM | 80% |
| CC(C)Nc1cccnc1N1CCN(C(=O)c2cc3ccccc3[nH]2)CC1 | Seropositive clinical isolate D | PBMC | MTT | - | 1 µM | 100% |
| CC(C)=CCc1cc(-c2coc3cc(O)cc(O)c3c2=O)cc(O)c1O | - | MOLT-4/OKM-1(HIV-1) + MOLT-4 | syncytia | - | 20 µg/mL | 100% |
| NCC(=O)N1CCC[C@H]1C(=O)NCC(=O)N[C@H](C=O)CCCN=C(N)N | IIIB | H9 | p24 | - | 250 µg/mL | 11.97% |
| O=C(O)CCCCCCCCCc1ccccc1 | IIIB | CEM + CEM-SS | cytopathic effect / XTT | - | 20 µM | 10.9% |
| NC(N)=NCCC[C@H](NC(=O)[C@@H](N)Cc1ccc(O)cc1)C(=O)NCC(=O)N1CCC[C@H]1C(=O)NCC=O | IIIB | H9 | syncytia | - | 25 µg/mL | 0% |
| O=C(O)CCCCCCCCCCOc1ccc(I)cc1 | IIIB | CEM + CEM-SS | cytopathic effect / XTT | - | 6.3 µM | 6.5% |
| NC(N)=NCCC[C@H](N)C(=O)NCC(=O)N1CCC[C@H]1C(=O)NCC=O | IIIB | H9 | p24 | - | 250 µg/mL | 96.4% |
| Cc1cn([C@H]2C=C[C@@H](CO)O2)c(=O)[nH]c1=O | SF162 R5 | PBL (resting) + PBL | RT activity | - | 4 µM | 24% |
| Cc1cn([C@H]2C[C@H](N=[N+]=[N-])[C@@H](CO)O2)c(=O)[nH]c1=O | LAV-1 | U-937 | virus yield | - | 1 µM | 0% |
| CC(C)C1=C[C@H](c2ccccc2)CC[C@H]1O | IIIB | Jurkat cells | p24 | - | 0.1 µM | 63.3% |
| COc1c(CC=C(C)C)c(O)cc2oc(=O)c(-c3ccc(O)cc3O)cc12 | - | MOLT-4/OKM-1(HIV-1) + MOLT-4 | syncytia | - | 20 µg/mL | 100% |
| Nc1ccn([C@H]2CC[C@@H](CO)O2)c(=O)n1 | SF162 R5 | PBL (activated) + PBL | RT activity | - | 0.2 µM | 97% |
| Oc1ccc(/C=C/c2cc(O)cc(O)c2)cc1 | SF162 | MDM | p24 | - | 10 µM | 40–60% |
| C/C(=C(/CCOC(=O)C(C)C)SS/C(CCOC(=O)C(C)C)=C(\C)N(C=O)Cc1cnc(C)nc1N)N(C=O)Cc1cnc(C)nc1N | LAV-1 | CEM/HIV-1(LAV-1) + CEM | p24 | - | 50 µM | 0% |
| CN=C1CN=C(c2ccc[nH]2)c2cc(Cl)ccc2N1 | LAV-1 | HT4 + HT4-6C | syncytia | - | 10 µM | 99% |
| CC(C)[C@H](NC(=O)c1ccc2ccccc2n1)C(=O)N[C@@H](Cc1ccccc1)[C@H](O)CN1CC[C@@H](OCc2ccncc2)C[C@H]1C(=O)NC(C)(C)C | Nevirapine-resistant | PBMC | p24 | - | 0.026 µM | 90% |
| Cc1cn([C@H]2C[C@H](N=[N+]=[N-])[C@@H](COP(=O)(O)OC[C@H]3OC(O)[C@H](O)[C@@H](O)[C@@H]3O)O2)c(=O)[nH]c1=O | LAV-Bru | U-937 | RT activity | 14 d | 5 µM | 0% |
| CCCCCSCCCCCCCC(=O)O | IIIB | CEM + CEM-SS | cytopathic effect / XTT | - | 6.3 µM | 11.2% |

Repeating the first 3 entries:

O=C(O)P(=O)(O)O ; strain: IIIB ; cells: H9 ; method: p24 / antigen ; conditions: 6 d ; tested at: 300 µM ; result: 92%
NC(N)=NCCC[C@@H](C=O)NC(=O)CNC(=O)[C@@H]1CCCN1C(=O)CNC(=O)[C@@H](N)CCCN=C(N)N ; strain: IIIB ; cells: H9 ; method: syncytia ; tested at: 25 µg/mL ; result: 0%
CC(C)(C)NC(=O)[C@@H]1C[C@@H]2CCCC[C@@H]2CN1C[C@@H](O)[C@H](Cc1ccccc1)NC(=O)[C@H](CC(N)=O)NC(=O)c1ccc2ccccc2n1 ; strain: BaL ; cells: Macrophage + Monocytes/macrophages ; method: p24 ; tested at: 0.4 µM ; result: 95%